Anti-infective test results gathered from many reports (values: NIAID ChemDB through PubChem).

Common to all: growth or infection tests; agent: Human cytomegalovirus; cells: MRC-5; endpoint: EC50

ECn: concentration that inhibits the pathogen or its effect by n%.

smiles | strain | read by | value
CC(=O)c1ccc2cc(-c3ccccc3)cn2c1 | AD169 | plaque count | >100 µM
CCCCCCCCCCCCCCCCCCOCCOP(=O)(O)CO[C@H](CO)Cn1ccc(N)nc1=O | C8708/17-1-1 | plaque count | 0.001 µM
CC(C)Nc1nc2cc(Cl)c(Cl)cc2n1[C@H]1O[C@@H](CO)[C@H](O)[C@@H]1O | 9219REC7 (LEU595DEL) | hybridisation | 0.2 µM
O=C(O)P(=O)(O)O | PC92 (ganciclovir- foscarnet-susceptible) | plaque count | 114 µM
Nc1nc2c(ncn2COC(CO)CO)c(=O)[nH]1 | D16 (ganciclovir-resistant) | plaque count | 28 µg/mL
Nc1nc2c(ncn2[C@@H]2C[C@H](CO)[C@H]2CO)c(=O)[nH]1 | AD169 (ganciclovir foscarnet-susceptible) | plaque count | 4.45 µM
Nc1ccn(C[C@H]2COP(=O)(O)CO2)c(=O)n1 | GDGP53 (drug-resistant mutant) | plaque count | 15.9 µM
OC[C@H]1O[C@@H](n2c(Cl)nc3cc(Cl)c(Cl)cc32)[C@H](O)[C@@H]1O | AD169 | plaque count | 2.8 µM
Nc1ccn(C[C@@H](CO)OCP(=O)(O)O)c(=O)n1 | Towne (ganciclovir- foscarnet-susceptible) | plaque count | 0.58 µM
Cc1cc(C)n2cc(-c3ccccc3)cc2c1 | AD169 | plaque count | 2.7 µM
Nc1ccn(C[C@H]2COP(=O)(O)CO2)c(=O)n1.O=C(O)P(=O)(O)O | PC92 (ganciclovir- foscarnet-susceptible) | plaque count | 1.16 µM
Brc1sccc1-c1cc2ccccn2c1 | AD169 | plaque count | >100 µM
Nc1ccn(C[C@@H](CO)OCP(=O)(O)O)c(=O)n1 | C8805-37 (ganciclovir-resistant) | plaque count | 0.33 µg/mL
Fc1cccn2cc(-c3ccccc3)cc12 | AD169 | plaque count | >100 µM
Nc1nc2c(ncn2COC(CO)CO)c(=O)[nH]1 | C8803 | plaque count | 3.4 µM
COc1ccc(-c2cc3ccccn3c2)cc1OC | AD169 | plaque count | >100 µM
CCOP(=O)(O)CCC(CO)OCn1cnc2c(=O)[nH]c(N)nc21 | C8704 (ganciclovir-resistant) | plaque count | 84 µg/mL
FC(F)(F)Oc1ccc(-c2cc3ccccn3c2)cc1 | AD169 | plaque count | >100 µM
CCCCCCCCCCCCCCCCCCOCCOP1(=O)CO[C@@H](Cn2ccc(N)nc2=O)CO1 | DAVIS | plaque count | 0.001 µM

The last 2 rows once more:

smiles,strain,read by,value
FC(F)(F)Oc1ccc(-c2cc3ccccn3c2)cc1,AD169,plaque count,>100 µM
CCCCCCCCCCCCCCCCCCOCCOP1(=O)CO[C@@H](Cn2ccc(N)nc2=O)CO1,DAVIS,plaque count,0.001 µM

Conditions beyond the fields shown may differ between rows.